We go through 13 molecules from US20230364057A1, “BACTERIAL DNA GYRASE INHIBITORS AND METHODS OF USE THEREOF” (THE FLORIDA INTERNATIONAL UNIVERSITY BOARD OF TRUSTEES, priority 2022, published 2023).

One data set relates to DNA. The data set can be described thus: DNA intercalation / DNA binding.
The test system of another data set is HepG2 cells. Particulars: SI=IC50(HepG2 toxicity)/MIC, minimum SI.

A value given as a limit tells only on which side of the number the result lay.

Consider `Brc1ccc2c(c1)-c1ccccc1C1=NCCN12` [Compound 217], for which the DNA intercalator result with DNA is “DNA intercalators”.
For `C[n+]1c(-c2ccc(C=NNC(=O)c3ccc(C(=O)NN=Cc4ccc(-c5cn6ccccc6[n+]5C)cc4)cc3)cc2)cn2ccccc21` [Compound 229], the “SI Mab” value in the data set on HepG2 cells (Mab) is over 18.5. Besides, in the data set on HepG2 cells (Mtb), the “SI Mtb” value is reported as over 28. Further, the “binding to DNA” value in the data set on DNA was “does not bind to DNA tightly”.
Regarding `CN(C)c1ccc(/C=c2\c3ccccc3n3c2cc(-c2ccccc2)[n+]3C)cc1` [Compound 236], the DNA intercalator entry in the data set with DNA is “DNA intercalator”.
As for `COc1ccc2c(c1)/c(=C\c1ccc(N(C)C)cc1)c1cc(-c3ccccc3)[n+](C)n12.O=S(=O)([O-])C(F)(F)F` [Compound 237], the DNA intercalator result with DNA is “DNA intercalators”.
For `CC1=NN(c2nc(N)nc(/C(C#N)=C\c3ccc([N+](=O)[O-])o3)n2)C(C)(C)C1` [Compound 238], the DNA intercalator result with DNA is listed as “DNA intercalators”.
`CCOC(=O)c1cc2c(=Cc3ccc(N(C)C)cc3)c3ccccc3n2[n+]1C.O=S(=O)([O-])C(F)(F)F` [Compound 239]: the DNA intercalator entry in the data set with DNA was “DNA intercalators”.
Take `COc1cccc2nc3c(C(=O)NCCN(C)C)cccc3cc12.Cl` [Compound 240]: in the data set with DNA, the DNA intercalator entry is given as “DNA intercalators”.
Same read-out and setting: under `CN(C)CCNC(=O)c1cccc2nc3cccc(F)c3nc12.Cl` [Compound 241] stands “DNA intercalators”.
On the same count and under the same terms, under `Nc1ccc2cc3ccc(N)cc3nc2c1` [Compound 246] stands “DNA intercalators”; under `Nc1c2ccccc2nc2ccccc12` [Compound 247], “DNA intercalators”.
As to `CN1/C(=C/c2cc[n+](C)c3ccccc23)Sc2ccccc21.Cc1ccc(S(=O)(=O)[O-])cc1` [Compound 248], the DNA intercalator result in the data set with DNA is on record as “DNA intercalators”.
With `CN(C)c1ccc2cc3ccc(N(C)C)cc3nc2c1` [Compound 249], the DNA intercalator entry with DNA is “DNA intercalators”.
Take `CCOc1ccc2nc3cc(N)ccc3c(N)c2c1` [Compound 257]: the DNA intercalator result in the data set with DNA is listed as “DNA intercalators”.
